Measured values from several laboratories, pooled; numbers as filed in NIAID ChemDB.

Common to all: target-level tests; agent: HIV; protein: Reverse transcriptase; endpoint: IC50

Blank or dashed fields: not listed here. ICn: concentration for n% inhibition. Rows are shuffled and stem from different studies.

| smiles | mutations | method | value |
|---|---|---|---|
| CC(C)Nc1cccnc1N1CCN(C(=O)c2cc3ccccc3[nH]2)CC1 | RT-E138K | nucleotide incorporation | 1 µM |
| Cc1cn([C@@H]2O[C@H](CO[Si](C)(C)C(C)(C)C)C3(OS(=O)(=O)C=C3N)[C@H]2O[Si](C)(C)C(C)(C)C)c(=O)n(C)c1=O | RT-E138K(P51 ONLY) | - | >100 µM |
| NS(=O)(=O)c1ccc(CCNC(=O)Cc2cccs2)cc1 | Y181C | nucleotide incorporation | 7.4 µM |
| Cc1c(Sc2ccccc2)n(COCCO)c(=O)[nH]c1=O | RT-K103N Y181I | - | >5 µM |
| Nc1nc2c(ncn2[C@H]2CC[C@@H](COP(=O)(O)OP(=O)(O)OP(=O)(O)O)O2)c(=O)[nH]1 | RT-Y181C | nucleotide incorporation | 0.03 µM |
| Cc1c(C(C)c2c(F)cccc2F)nc(NC2CCCC2)[nH]c1=O | V179D | nucleotide incorporation / radiometric | 0.3 µM |
| CC(C)=CCN1Cc2cccc3[nH]c(=S)n(c23)C[C@@H]1C | RT-E138K(P66 ONLY) | - | 0.28 µM |
| CC(C)=CCOc1cc(NC(=S)c2ccoc2C)ccc1Cl | RT-N137D | nucleotide incorporation / radiometric | 0.02 µM |
| CO[P@](=O)(c1cc(C)cc(/C=C/C#N)c1)c1c(C(N)=O)[nH]c2ccc(Cl)c(F)c12 | Y181C/K103 | - | 1.411 µM |
| Cc1cn([C@H]2C=C[C@@H](COP(=O)(O)OP(=O)(O)OP(=O)(O)O)O2)c(=O)[nH]c1=O | RT-N137T | nucleotide incorporation / radiometric | 1.7 µM |
| COc1ccc2c(c1)N(C(=O)OC(C)C)[C@@H](CSC)C(=S)N2 | RT-D67N K70R T215F K219Q K103N | RT activity | 0.077 µg/mL |
| Cc1cc(C)cc([C@]23SCCN2C(=O)c2ccccc23)c1 | RT-Y188L | ELISA | 6.7 µM |
| O=c1[nH]cnc2c1ncn2[C@H]1CC[C@@H](CO)O1 | RT-K65R S68G | RT activity | 5.9 µM |
| Cc1cn([C@@H]2O[C@H](CO[Si](C)(C)C(C)(C)C)[C@@]3(OS(=O)(=O)C=C3N)[C@H]2O[Si](C)(C)C(C)(C)C)c(=O)[nH]c1=O | RT-N137T | nucleotide incorporation / radiometric | 0.7 µM |
| O=C1c2ccccc2C2(c3ccccc3)SCCN12 | RT-K101A | ELISA | 55 µM |

A second listing of 2 rows from above:

smiles	mutations	method	value
Cc1c(C(C)c2c(F)cccc2F)nc(NC2CCCC2)[nH]c1=O	V179D	nucleotide incorporation / radiometric	0.3 µM
COc1ccc2c(c1)N(C(=O)OC(C)C)[C@@H](CSC)C(=S)N2	RT-D67N K70R T215F K219Q K103N	RT activity	0.077 µg/mL